Pooled drug test results. Numbers come from NIAID ChemDB, via PubChem.

CCn is the concentration with n% toxicity to the cells.

SMILES	target	kind	strain or isolate	species	measure	cells	dose	value
CCCCCCCCCCCCCCCCCC(=O)OC[C@@H](COP(=O)(O)OCCNCCO[C@@]1(C(=O)O)O[C@@H]([C@H](O)[C@H](O)CO)[C@H](NC(C)=O)[C@@H](O)[C@H]1F)OC(=O)CCCCCCCCCCCCCCCCC	Sialidase	target	H2N2 A/DUCK/HK/273/78	Influenza A virus	IC50	-	-	125 µM
CCCCCCCCCCCCCCCCCC(=O)OC[C@@H](COP(=O)(O)OCCNCCO[C@@]1(C(=O)O)O[C@@H]([C@H](O)[C@H](O)CO)[C@H](NC(C)=O)[C@@H](O)[C@H]1F)OC(=O)CCCCCCCCCCCCCCCCC	Sialidase	target	H4N1 A/DUCK/849/3/80	Influenza A virus	IC50	-	-	125 µM
Nc1nccc2c1ncn2[C@@H]1C=C(CO)[C@@H](O)[C@H]1O	-	culture	Isolate Brazil Garcia	Variola virus	EC50	LLC-MK2	-	0.45 µg/mL
CC(=O)NC(C(=O)NCCc1ccccc1)[C@H]1CC(C(=O)O)C[C@@H]1N=C(N)N	Neuraminidase	target	-	Influenza A virus (H6N2)	IC50	-	-	6.4 µM
CC(CC(=O)Nc1cccc(-c2ccc(C(=O)O)o2)c1)NC(=O)c1ccc2c(c1)nc(-c1ccoc1)n2C1CCCCC1	RNA-dependent RNA polymerase	target	-	Poliovirus	IC50	-	-	>25 µM
CC(=O)NC(C(=O)N1CCCC1)[C@H]1CC(C(=O)O)C[C@@H]1N=C(N)N	Neuraminidase	target	-	Influenza A virus (H6N2)	IC50	-	-	0.47 µM
O=C(N[C@@H](Cc1c[nH]c2ccc(O)cc12)c1cscn1)c1ccc2c(c1)nc(-c1ccoc1)n2C1CCCCC1	RNA-dependent RNA polymerase	target	-	Poliovirus	IC50	-	-	>25 µM
CCCN(CC)C(=O)C(NC(C)=O)[C@H]1CC(C(=O)O)C[C@@H]1N=C(N)N	Neuraminidase	target	-	Influenza A virus (H6N2)	IC50	-	-	0.13 µM
Cc1nc([C@H](Cc2c[nH]c3ccc(O)cc23)NC(=O)c2ccc3c(c2)nc(-c2ccoc2)n3C2CCCCC2)cs1	RNA-dependent RNA polymerase	target	-	Poliovirus	IC50	-	-	>25 µM
CCCCCCCCCCCCC/C=C/[C@@H](O)[C@H](CO[C@@H]1O[C@H](CO)[C@H](O)[C@H](OS(=O)(=O)O)[C@H]1O)NC(=O)CCCCCCCCCCCCCCCCCCCCCCC	Sialidase	target	H1N4 A/Teal/Alberta/69/87	Influenza A virus	inhibition	-	200 µM	70.4%
CCN(CC)C(=O)C(NC(C)=O)[C@H]1C[C@@H](C(=O)O)C[C@@H]1N=C(N)N	Neuraminidase	target	-	Influenza A virus (H6N2)	IC50	-	-	3 µM
Nc1ccn(C[C@@H](CO)OCP(=O)(O)O)c(=O)n1	-	culture	Isolate Bangladesh	Variola virus	EC50	VERO	-	9.5 µg/mL
O=C(NC1CCN(Cc2ccccc2C(=O)O)CC1)c1ccc2c(c1)nc(-c1ccoc1)n2C1CCCCC1	RNA-dependent RNA polymerase	target	-	Poliovirus	IC50	-	-	>25 µM
NC(=O)c1c[se]c([C@@H]2O[C@H](CO)[C@@H](O)[C@H]2O)n1	-	culture	Nakayama	Japanese encephalitis virus	EC50	VERO 76	-	3 µg/mL
O=c1[nH]cnc2c1ncn2[C@@H]1C=C(CO)[C@@H](O)[C@H]1O	-	toxicity	-	-	CC50	MK2	-	>100 µg/mL
CC(=O)NC(C(=O)N1CCOCC1)[C@H]1CC(C(=O)O)C[C@@H]1N=C(N)N	Neuraminidase	target	-	Influenza A virus (H6N2)	IC50	-	-	0.04 µM
O=C(O)COc1ccc2[nH]cc(C[C@H](NC(=O)c3ccc4c(c3)nc(-c3ccoc3)n4[C@@H]3CCCC[C@H]3O)C(=O)O)c2c1	RNA-dependent RNA polymerase	target	-	Poliovirus	IC50	-	-	>25 µM
Nc1ncnc2c1ncn2[C@@H]1C=C(CO)[C@@H](O)[C@H]1O	-	culture	CPX	Cowpox virus	EC50	VERO	-	>100 µg/mL
CC(C)C(CO)n1c(-c2ccoc2)nc2cc(C(=O)N[C@@H](Cc3c[nH]c4ccc(O)cc34)C(=O)O)ccc21	RNA-dependent RNA polymerase	target	-	Poliovirus	IC50	-	-	>25 µM
CCNC(=O)C(NC(C)=O)[C@H]1CC(C(=O)O)C[C@@H]1N=C(N)N	Neuraminidase	target	-	Influenza A virus (H6N2)	IC50	-	-	0.33 µM
Nc1ccn(C[C@H]2COP(=O)(O)CO2)c(=O)n1	-	culture	Isolate Garcia	Variola virus	EC50	VERO	-	4 µg/mL
O=C(NC(=O)c1ccc2c(c1)nc(-c1ccoc1)n2C1CCCCC1)OCc1ccccc1	RNA-dependent RNA polymerase	target	-	Poliovirus	IC50	-	-	>25 µM

A second listing of 3 rows from above:

SMILES,target,kind,strain or isolate,species,measure,cells,dose,value
CC(C)C(CO)n1c(-c2ccoc2)nc2cc(C(=O)N[C@@H](Cc3c[nH]c4ccc(O)cc34)C(=O)O)ccc21,RNA-dependent RNA polymerase,target,-,Poliovirus,IC50,-,-,>25 µM
O=C(NC1CCN(Cc2ccccc2C(=O)O)CC1)c1ccc2c(c1)nc(-c1ccoc1)n2C1CCCCC1,RNA-dependent RNA polymerase,target,-,Poliovirus,IC50,-,-,>25 µM
O=C(O)COc1ccc2[nH]cc(C[C@H](NC(=O)c3ccc4c(c3)nc(-c3ccoc3)n4[C@@H]3CCCC[C@H]3O)C(=O)O)c2c1,RNA-dependent RNA polymerase,target,-,Poliovirus,IC50,-,-,>25 µM

Neighbouring rows are from separate reports. An empty or dashed field is not shown. Inhibition is in % at the dose shown (toxicity tests: loss of growth or viability). ECn is the concentration giving n% inhibition of infection, replication or growth. ICn: concentration for n% inhibition.